Values quoted from earlier work, collected in patent US9782422B2, “Treatment of conditions associated with mycotoxin exposure” (dated 2017).

Conditions: water and polar solvents; cited from earlier work

SMILES: CC1=C[C@H]2O[C@@H]3[C@H](O)C[C@](C)([C@@]2(CO)[C@H](O)C1=O)[C@]31CO1
- solubility: soluble in water and polar solvents such as methanol and acetonitrile
